Data as given in PubChem BioAssay AID1224833 (University of Georgia, 2016)
This is an unselected part of about 12,000 reagents tested. About 5,600 of all reagents (46%) count as active. 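Active calls cover z-scores past 1 in both directions, so they include lowered as well as raised rotavirus replication.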

Screen: 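Host factors restraining rotavirus as candidate antiviral genes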 (primary screen)
System: monkey MA104 kidney cells
Reagent: siRNA pool against human genes, 50 nM
Timing: 48 h knock-down before infection; read 24 h after infection
Challenge: infection with rotavirus strain RV3 two days after transfection; infectious dose for this stage not given
Measured: 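z-score of rotavirus antigen signal per well, from a fluorescent immunoassay, relative to non-targeting control wells on the same plate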
Reading the numbers: z-score vs non-targeting control: higher = more rotavirus replication than with non-targeting control
Active means: In these data the active calls have z-score vs non-targeting control at about -1 or lower, or at about 1 or higher
Calls: active = z-score beyond 1 either way; inactive = z-score within 1 of zero

| target gene | z-score vs non-targeting control | Outcome |
| --- | --- | --- |
| PFDN6 (prefoldin subunit 6) | 0.305 | inactive |
| SCCPDH (saccharopine dehydrogenase (putative)) | 1.48 | active |
| AIF1 (allograft inflammatory factor 1) | -2.27 | active |
| RNF167 (ring finger protein 167) | -0.622 | inactive |
| EVX2 (even-skipped homeobox 2) | -1.56 | active |
| ISX (intestine specific homeobox) | -1.34 | active |
| LEMD1 (LEM domain containing 1) | -2.07 | active |
| VIPAS39 | 0.561 | inactive |
| TADA3 (transcriptional adaptor 3) | 1.15 | active |
| PSTPIP1 (proline-serine-threonine phosphatase interacting protein 1) | 0.139 | inactive |
| ADNP2 (ADNP homeobox 2) | -0.62 | inactive |
| TYROBP (transmembrane immune signaling adaptor TYROBP) | 1.51 | active |
| TGM7 (transglutaminase 7) | -1.47 | active |
| SACK1B (scaffolding CK1 anchoring protein B) | -0.773 | inactive |
| ZNF567 (zinc finger protein 567) | 0.657 | inactive |
| TECTA (tectorin alpha) | -0.878 | inactive |
| FIRRM (FIGNL1 interacting regulator of recombination and mitosis) | 0.82 | inactive |
| FMN2 (formin 2) | 0.136 | inactive |
| RFXANK (regulatory factor X associated ankyrin containing protein) | -1.79 | active |
| GPR143 (G protein-coupled receptor 143) | 0.84 | inactive |
| EHMT1 (euchromatic histone lysine methyltransferase 1) | -0.541 | inactive |
| SLC25A35 | -1.14 | active |
| KIRREL3 (kirre like nephrin family adhesion molecule 3) | 1.12 | active |
| SLC35F1 | 0.388 | inactive |
| RPS12 (ribosomal protein S12) | -0.779 | inactive |
| CNTNAP1 (contactin associated protein 1) | -1.27 | active |
| OR2AE1 (olfactory receptor family 2 subfamily AE member 1) | -1.17 | active |
| C16orf89 (chromosome 16 open reading frame 89) | -0.546 | inactive |
| SGO2 (shugoshin 2) | -0.817 | inactive |
| OR51F1 (olfactory receptor family 51 subfamily F member 1) | -0.512 | inactive |
| ZCRB1 (zinc finger CCHC-type and RNA binding motif containing 1) | 1.35 | active |
| CHRDL2 (chordin like 2) | -0.907 | inactive |
| RIBC2 (RIB43A domain with coiled-coils 2) | -2.55 | active |
| CUX2 (cut like homeobox 2) | -1.19 | active |
| PILRA (paired immunoglobin like type 2 receptor alpha) | 0.404 | inactive |
| ESRRB (estrogen related receptor beta) | 0.594 | inactive |
| SMG6 (SMG6 nonsense mediated mRNA decay factor) | -0.363 | inactive |
| NDUFB3 (NADH:ubiquinone oxidoreductase subunit B3) | -1.28 | active |
| DND1 (DND microRNA-mediated repression inhibitor 1) | 0.383 | inactive |
| MDGA1 (MAM domain containing glycosylphosphatidylinositol anchor 1) | -0.452 | inactive |

Continued; the last 15 above are carried over.
| target gene | z-score vs non-targeting control | Outcome |
| --- | --- | --- |
| CNTNAP1 (contactin associated protein 1) | -1.27 | active |
| OR2AE1 (olfactory receptor family 2 subfamily AE member 1) | -1.17 | active |
| C16orf89 (chromosome 16 open reading frame 89) | -0.546 | inactive |
| SGO2 (shugoshin 2) | -0.817 | inactive |
| OR51F1 (olfactory receptor family 51 subfamily F member 1) | -0.512 | inactive |
| ZCRB1 (zinc finger CCHC-type and RNA binding motif containing 1) | 1.35 | active |
| CHRDL2 (chordin like 2) | -0.907 | inactive |
| RIBC2 (RIB43A domain with coiled-coils 2) | -2.55 | active |
| CUX2 (cut like homeobox 2) | -1.19 | active |
| PILRA (paired immunoglobin like type 2 receptor alpha) | 0.404 | inactive |
| ESRRB (estrogen related receptor beta) | 0.594 | inactive |
| SMG6 (SMG6 nonsense mediated mRNA decay factor) | -0.363 | inactive |
| NDUFB3 (NADH:ubiquinone oxidoreductase subunit B3) | -1.28 | active |
| DND1 (DND microRNA-mediated repression inhibitor 1) | 0.383 | inactive |
| MDGA1 (MAM domain containing glycosylphosphatidylinositol anchor 1) | -0.452 | inactive |
| PLIN4 (perilipin 4) | 1.05 | active |
| LINC01565 (long independently transcribed non-coding RNA 1565) | 0.871 | inactive |
| PLBD1 (phospholipase B domain containing 1) | -1.01 | active |
| SNX2 (sorting nexin 2) | -0.933 | inactive |
| RAD51D (RAD51 paralog D) | 0.534 | inactive |
| IFT56 (intraflagellar transport 56) | 2.13 | active |
| OR5D16 (olfactory receptor family 5 subfamily D member 16) | -0.0178 | inactive |
| CNPPD1 (cyclin Pas1/PHO80 domain containing 1) | -1.24 | active |
| TMED3 (transmembrane p24 trafficking protein 3) | 0.243 | inactive |
| CRYBA4 (crystallin beta A4) | -0.9 | inactive |
| MAFK (MAF bZIP transcription factor K) | 1.01 | active |
| VHL (von Hippel-Lindau tumor suppressor) | -0.898 | inactive |
| ANPEP (alanyl aminopeptidase, membrane) | 1.83 | active |
| PRPF6 (pre-mRNA processing factor 6) | 0.246 | inactive |
| PTGDR (prostaglandin D2 receptor) | -0.964 | inactive |
| TCEA3 (transcription elongation factor A3) | -0.943 | inactive |
| LNPEP (leucyl and cystinyl aminopeptidase) | 0.797 | inactive |
| SLC25A51 | -0.125 | inactive |
| PURA (purine rich element binding protein A) | -2.29 | active |
| ASCL1 (achaete-scute family bHLH transcription factor 1) | 0.638 | inactive |
| DCST2 (DC-STAMP domain containing 2) | 0.536 | inactive |
| EML1 (EMAP like 1) | -0.211 | inactive |
| TAMM41 | -1.92 | active |
| KCNIP3 (potassium voltage-gated channel interacting protein 3) | 2.19 | active |
| NPPC (natriuretic peptide C) | -1.52 | active |
| APOL1 (apolipoprotein L1) | -1.69 | active |
| SALL1 (spalt like transcription factor 1) | -1.48 | active |
| PHC1 (polyhomeotic homolog 1) | 1.1 | active |
| FASN (fatty acid synthase) | -0.57 | inactive |
| CDH1 (cadherin 1) | -0.353 | inactive |
| MSANTD3 (Myb/SANT DNA binding domain containing 3) | -1.32 | active |
| WNT2B (Wnt family member 2B) | -0.583 | inactive |
| CNTNAP4 (contactin associated protein family member 4) | -0.0834 | inactive |
| BAGE5 (BAGE family member 5) | 1.06 | active |
| FIGLA (folliculogenesis specific bHLH transcription factor) | 0.182 | inactive |
| ANO2 (anoctamin 2) | -0.0308 | inactive |
| CD8B (CD8 subunit beta) | -0.59 | inactive |
| ANKRD26 (ankyrin repeat domain 26) | -1.45 | active |
| LRRC18 (leucine rich repeat containing 18) | -0.538 | inactive |
| HLA-DQA1 (major histocompatibility complex, class II, DQ alpha 1) | -1.09 | active |
| ZNF596 (zinc finger protein 596) | -0.74 | inactive |
| MYO7B (myosin VIIB) | -0.482 | inactive |
| LRATD1 (LRAT domain containing 1) | -0.141 | inactive |
| IQCH (IQ motif containing H) | -1.62 | active |
| AP4S1 (adaptor related protein complex 4 subunit sigma 1) | 0.102 | inactive |
| NOP2 (NOP2 nucleolar protein) | -1.44 | active |
| RPP30 (ribonuclease P/MRP subunit p30) | 0.0365 | inactive |
| LYPD6B (LY6/PLAUR domain containing 6B) | -1.73 | active |
| OR4M1 (olfactory receptor family 4 subfamily M member 1) | 0.0472 | inactive |
| OLFM4 (olfactomedin 4) | -0.929 | inactive |
| C1D (C1D nuclear receptor corepressor) | 0.0389 | inactive |
| KRT27 (keratin 27) | 0.447 | inactive |
| LDB1 (LIM domain binding 1) | -0.632 | inactive |
| NCDN (neurochondrin) | 2.56 | active |
| SAA4 (serum amyloid A4, constitutive) | -1.75 | active |
| ZDHHC4 (zDHHC palmitoyltransferase 4) | -0.534 | inactive |
| IL13RA2 (interleukin 13 receptor subunit alpha 2) | 1.56 | active |
| CR2 (complement C3d receptor 2) | 1.55 | active |
| IFT43 (intraflagellar transport 43) | 0.671 | inactive |
| LRAT (lecithin retinol acyltransferase) | 1.06 | active |
| PAX5 (paired box 5) | -1.52 | active |
| CDS1 (CDP-diacylglycerol synthase 1) | -0.965 | inactive |
| TSPAN2 (tetraspanin 2) | -0.542 | inactive |
| MTRFR (mitochondrial translation release factor in rescue) | 2.17 | active |
| KLHL27 (kelch like family member 27) | 0.444 | inactive |
| BBS5 (Bardet-Biedl syndrome 5) | -1.22 | active |
| ZCCHC24 (zinc finger CCHC-type containing 24) | 0.624 | inactive |
| PDLIM2 (PDZ and LIM domain 2) | 1.1 | active |
| ARL14 (ARF like GTPase 14) | -1.43 | active |
| MANBA (mannosidase beta) | -1.1 | active |
